# Library screen at single concentrations

Data taken from ChEMBL document CHEMBL3988442, “University of Dundee, Small-Polar-MMV Screening Library” (2021).

Each number is a percent effect as filed.
The record does not define 0% and 100%; most values in the screen are far below 50% and negative numbers occur (in some assays of this library far below -100).
This is part of a subset picked to be rich in strong results.
Two or more numbers in one place are separate tests of the same structure; such repeats can differ widely.

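Whole-cell growth test on Mycobacterium tuberculosis, read after 3 days in glucose-containing 7H9 medium; the read-out is not stated. Tested at 50 µM. Direction is inferred from retests: higher values go with more growth inhibition. Size under these conditions: about 69,000 compounds, about 760 of them at 50% or above in at least one test.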

Result for CCC(C)S(=O)(=O)N1CCc2nc(C3CCNCC3)ncc2C1.Cl (stereo not given) was 40.57%.
Result for CCC(Nc1nnnn1-c1ccccc1)C(=O)NCc1ccsc1 (stereo not given) was 40.93%.
Result for Cc1nc(CN)cc(N2CCC(O)(c3ccc(Cl)cc3)CC2)n1 was 22.54%.
Result for Br.O=C(CN(C1=NCCCC1)c1ccccc1)c1ccc(OC(F)F)cc1 was 64.71%.
Result for COC1CCCN(C2CCN(c3cccc(-c4csc(C)n4)c3)CC2)C1 (stereo not given) was 26.82%.
Result for COCC(=O)NCCc1ccc(Cl)s1 was 48.45%.
Result for COc1cc(C(=O)Nc2nc(C)no2)cc(Cl)c1OC was 58.42%.
Result for Cc1cc(F)ccc1CN1CCCC(O)(CN2CCCC2)C1 (stereo not given) was 63.68%.
Result for [H][C@@]12CN(C(=O)C3CCOC3)C[C@]1([H])C(=O)N(c1ccccc1)C2 (stereo not given in full) was -2.618% & -15.33%.
Result for CN1CCC(CNC(=O)c2ccc(O)nc2)c2ccccc21 (stereo not given) was -4.041% & 1.481%.
Result for CC(CO)CSc1ncnc2[nH]ncc12 (stereo not given) was -0.6469%.
Result for CCc1ccc(CCC(=O)NCc2nnc[nH]2)cc1 was 3.094% & -26.99%.
Result for Cc1cccc(C(=O)N2CCCC(c3noc(C)n3)C2)n1 (stereo not given) was -1.379%.
Result for O=C(COCc1nc(-c2ccncc2)no1)N1CCCCC1 was 35.85%.
Result for CN(C)c1cc(C2CCCN2C(=O)c2noc3c2CCCC3)ccn1 (stereo not given) was -0.1032%.
Result for Cc1ccc(CCC(=O)N2CCCC(c3cc(C(N)=O)[nH]n3)C2)cc1 (stereo not given) was -8.961%.
Result for O=C(Cn1nnn(-c2cccs2)c1=O)NCC1CCOC1 (stereo not given) was -14.81% & -8.528%.
Result for Cc1cc(F)ccc1CN1CCC(O)(CN2CCCCC2)C1 (stereo not given) was -16.83%.
Result for CC(C)(CNc1ccc(C#N)c(C(F)(F)F)c1)C(N)=O was 50.43%.
Result for Cc1ccsc1-c1cccc(-c2ccn(CC3CCNC3)n2)c1 (stereo not given) was 53.91%.
Result for Cc1cc(C)cc(C(=O)NCc2ncnn2C)c1 was 37.94%.
Result for CN1CCCCC1c1ncc2c(n1)CCN(Cc1ccccc1Cl)C2 (stereo not given) was 43.89%.
Result for CC(C)=CCN1CCc2onc(-c3ccc(F)c(F)c3)c2C1 was -35.31% & 0.8359%.
Result for c1ccc(Oc2cccc(OC34CCCN(CC3)C4)c2)cc1 (stereo not given) was 86.07% & 83.36%.
Result for COc1cccc(CNC(CN2CCN(C)CC2)c2ccccc2)c1 (stereo not given) was 15.95%.
Result for COc1cccc(OC)c1-c1ccnc2cc(CC(=O)NC(C)C)nn12 was 50.41%.
Result for CC(=O)NCC1CN(c2ccc3c(Cl)ccnc3c2F)CCO1 (stereo not given) was -2.33%.
Result for CCCn1ncc(CN2CCCC(C(=O)c3ccc(Cl)cc3C)C2)c1C (stereo not given) was -4.861% & -14.35%.
Result for COc1ccc(OC)c(C(C)Nc2ncnc3c2NC(=O)CN3)c1 (stereo not given) was 19.71%.
Result for COCCN1CCC1c1cc(NC2CCCC2)nc(C)n1 (stereo not given) was 40%.
Result for CN(C)C(=O)c1csc(-c2ccoc2)n1 was -0.8984%.
Result for O=C(NCCOc1ncc(Cl)cc1Cl)c1cccnc1 was -16.46%.
Result for CN(Cc1ccc(N(C)C)cc1)C(=O)CSc1ccc(Br)cc1 was -13.8%.

Repeated from the top, 3 entries:

| structure | effect |
|---|---|
| `CCC(C)S(=O)(=O)N1CCc2nc(C3CCNCC3)ncc2C1.Cl` (stereo not given) | 40.57 |
| `CCC(Nc1nnnn1-c1ccccc1)C(=O)NCc1ccsc1` (stereo not given) | 40.93 |
| `Cc1nc(CN)cc(N2CCC(O)(c3ccc(Cl)cc3)CC2)n1` | 22.54 |